According to PMC4484790 (Virology, 2014):

Tests used:
[1] = PK of orally administered MVC in plasma and mucosal tissues of hu-mice; type: in vivo
[2] = PK of orally administered MVC in plasma and mucosal tissues of non-hu mice; type: in vivo, non-humanized mice
[3] = intestinal tissue, MVC oral 62 mg/kg x 5 days
[4] = plasma, MVC oral 62 mg/kg x 5 days
[5] = plasma, MVC oral gavage 62 mg/kg daily for 5 days, post-last dose
[6] = rectal tissue, MVC oral 62 mg/kg x 5 days
[7] = vaginal tissue, MVC oral 62 mg/kg x 5 days

Maraviroc [MVC]
AUC24h [1, 3]: 140,159 ng * h/g | Half-life (t½) [1, 3]: 1.2 h | Tmax [1, 3]: 4 h | AUC24h [1, 4]: 488.6 ng·h/mL | AUC48h [1, 4]: 755 ng·h/mL | Half-life (t½) [1, 4]: 1 h | Tmax [1, 4]: 4 h | Cmax (median) [1, 5]: 102 ng/mL | AUC24h [1, 6]: 32,690 ng * h/g | Half-life (t½) [1, 6]: 1.5 h | Tmax [1, 6]: 4 h | RT:BP AUC ratio ([1]; rectal tissue:blood plasma, MVC oral 62 mg/kg x 5 days): 66.9 | AUC24h [1, 7]: 2,461 ng * h/g | Half-life (t½) [1, 7]: 2.6 h | Tmax [1, 7]: 4 h | AUC24h VT:BP ratio ([1]; vaginal tissue:blood plasma, MVC oral 62 mg/kg x 5 days): 5 | AUC24h [2, 3]: 134,883 ng * h/g | Half-life (t½) [2, 3]: 2.7 h | Tmax [2, 3]: 4 h | AUC24h tissue:plasma ratio ([2]; intestinal tissue:plasma, MVC oral 62 mg/kg x 5 days): 43.8 | AUC48h [2, 4]: 3,280 ng * h/ml | Tmax [2, 4]: 4 h | Half-life (t½) ([2]; plasma, MVC oral 62 mg/kg x 5 days, 62 mg/kg): 20 h and 20.1 h | Cmax (median) [2, 5]: 113 ng/mL | AUC24h [2, 6]: 69,301 ng * h/g | Half-life (t½) [2, 6]: 2.9 h | Tmax [2, 6]: 4 h | AUC24h tissue:plasma ratio ([2]; rectal tissue:plasma, MVC oral 62 mg/kg x 5 days): 22.5 | AUC24h [2, 7]: 11,239 ng * h/g | Half-life (t½) [2, 7]: 3.7 h | Tmax [2, 7]: 4 h | AUC24h tissue:plasma ratio ([2]; vaginal tissue:plasma, MVC oral 62 mg/kg x 5 days, 62 mg/kg): 3.65

Values joined by “and” are separate entries in the source; they are usually repeats but may differ in a detail not shown here. Equal values may be shown once.
